# Source: PubChem BioAssay AID1259414 (Drosophila RNAi Screening Center, 2018)
# Screen: 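Host factors increasing or decreasing Wolbachia levels in cultured fly cells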 (primary screen)
# Cells: Drosophila JW18 cells infected with Wolbachia
# Knock-down reagent: long dsRNA against Drosophila genes, 0.25 µg dsRNA per well of a 384-well plate
# Timing: 5 days
# Challenge: cells persistently infected with Wolbachia before knock-down; no added drug
# Measurement: 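Automated imaging of bacterial rRNA staining divided by host cell count, reported as plate-normalised robust z-score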
# Direction: Wolbachia per cell robust z: higher = more Wolbachia per host cell than the plate typical
# Rule for the call: 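Active if absolute robust z reaches 1.5 in two or more of three replicates, leaving out multi- or no-target dsRNAs, genes unexpressed in JW18 and A1 wells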
# The screen tested about 24,000 reagents; this is an unselected part of those that have a named target and a result. Of all reagents, about 1,210 (5%) were called active. 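Inactive calls also include excluded dsRNAs with several or no targets, genes unexpressed in JW18, and well A1, regardless of score.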 Unmarked entries are inactive. A plus sign joins genes that one reagent is predicted to hit.
"Wolbachia per cell robust z, rep 1","Wolbachia per cell robust z, rep 2","Wolbachia per cell robust z, rep 3",target gene,PubChem SID
2.7 (active),2.73,5.04,Sf3b2 (Splicing factor 3b subunit 2),SID104180411
0.276,0.309,0.905,CG8043,SID104196160
-0.287,-5.03,0.207,Cln3,SID104190312
0.205,0.0287,0.459,Cln3,SID104205814
0.333,0.723,-3.2,LPCAT (Lysophosphatidylcholine acyltransferase),SID104197949
0.483,0.496,0.428,LPCAT (Lysophosphatidylcholine acyltransferase),SID104198049
-1.15,0.0339,-0.0917,CG16825,SID104182318
0.176,0.0176,0.548,lncRNA:CR30009 (long non-coding RNA:CR30009),SID104202309
-0.0421,-0.457,0.178,lncRNA:CR30009 (long non-coding RNA:CR30009),SID104208361
-0.741,-1.5,-0.605,msd1 (mitotic spindle density 1),SID104188175
0.139,0.155,0.297,CG14634,SID104197736
0.717,-0.715,-1.57,CanA1 (Calcineurin A1),SID104196392
-0.223,0.677,0.362,CanA1 (Calcineurin A1),SID104204412
-1.65,0.00987,0.877,Ptr (Patched-related),SID104184644
-1.34,0.651,-0.105,Ptr (Patched-related),SID104201237
1.22,0.834,-1.43,CG4455,SID104181775
0.0754,-1.21,-1.31,CG4455,SID104201365
-0.47,-0.861,-0.393,Usp7 (Ubiquitin-specific protease 7),SID104198701
-4.58 (active),-3.97,-1.44,Usp7 (Ubiquitin-specific protease 7),SID104199396
1.04,-0.459,-1.3,Usp7 (Ubiquitin-specific protease 7),SID104204653
0.0853,0.405,0.0204,Ugt37A3 (UDP-glycosyltransferase family 37 member A3),SID104195729
-0.242,-1.1,-0.749,CG33627,SID104216450
-0.429,-0.184,-2.4,CheB42b (Chemosensory protein B 42b),SID104202237
1.05,0.42,0.534,CG14693,SID104194708
0.404,-0.62,0.418,ninaC (neither inactivation nor afterpotential C),SID104183371
0.778,1.18,-3.74,ninaC (neither inactivation nor afterpotential C),SID104208419
-0.14,-1.21,-0.376,CG14194,SID104199341
0.324,0.0189,-0.949,BomS1 (Bomanin Short 1),SID104202071
1.3,-0.683,-0.84,CG18132,SID104180310
1.6 (active),2.07,2.82,Sec5 (Secretory 5),SID104180506
0.925,1.36,0.373,CG12054,SID104202494
-0.573,-0.808,-0.632,CG15550,SID104194880
0.505,0.109,0.225,CG15550,SID104207945
0.235,0.391,-2.27,mol (moladietz),SID104181223
1.87,0.918,-10.2,mol (moladietz),SID104181704
-2.21,0.0737,0.0976,mol (moladietz),SID104182271
0.0309,-0.488,0.755,mol (moladietz),SID104202967
1.1,0.802,0.93,ND-ASHI (NADH dehydrogenase (ubiquinone) ASHI subunit),SID104198083
-4.27,-0.202,-0.282,ND-ASHI (NADH dehydrogenase (ubiquinone) ASHI subunit),SID104205709
-2.86,-5.52,-1.74,CG12321,SID104194291
0.199,1.1,1,CG12321,SID104207509
1.19,0.713,0.9,CG33272,SID104188908
-3.57,0.0567,-0.565,Klp67A (Kinesin-like protein at 67A),SID104190997
0.878,-0.774,-0.306,Klp67A (Kinesin-like protein at 67A),SID104204572
-1.05,-0.829,-0.729,CG3776,SID104184209
0.481,0.512,-4.06,Cht8 (Chitinase 8),SID104184338
-6.73,-0.74,-3.76,Porin2,SID104182376
0.21,1.14,0.378,CG17027,SID104190030
-1.31,-1.57,0.401,CG17027,SID104204105
0.607,0.466,0.481,ric8b + ric8a,SID104197896
-0.91,-0.952,-1.53,Mgat3,SID104181097
0.0686,-0.563,-0.467,Mgat3,SID104207942
-1.25,-8.05,0.42,Pop2,SID104190329
0.142,0.361,-0.643,Pop2,SID104206515
-0.434,-0.57,-0.166,lncRNA:CR42715 (long non-coding RNA:CR42715),SID104218978
-3.18,-4.63,0.61,CG12853,SID104185985
-1.07,0.389,0.0254,CG12853,SID104205737
0.551,0.392,-1.18,M6,SID104191661
0.0132,-0.0222,1.42,GCS1 (Glucosidase 1),SID104199536
0.673,1.08,-0.543,GCS1 (Glucosidase 1),SID104204169
-0.143,-0.0493,0.314,CG10543,SID104202459
0.954,0.311,0.459,Pask (PAS kinase),SID104184129
0.882,1.31,-0.907,Pask (PAS kinase),SID104207373
0.124,0.473,0.677,Cpr47Ea (Cuticular protein 47Ea),SID104187125
-0.62,0.313,-0.16,CG17167,SID104200694
0.66,0.666,0.833,CG17167,SID104200695
0.0741,1.41,1.36,ddbt (deadbeat),SID104216432
1.62 (active),1.47,2,RpL40 (Ribosomal protein L40),SID104180574

Taken from above:
Usp7 (Ubiquitin-specific protease 7) [SID104198701], Wolbachia per cell robust z, rep 3: -0.393
Result of CG12321 [SID104207509] under “Wolbachia per cell robust z, rep 2”: 1.1
Result for lncRNA:CR30009 (long non-coding RNA:CR30009) [SID104208361] in “Wolbachia per cell robust z, rep 2”: -0.457
For “Wolbachia per cell robust z, rep 3”, LPCAT (Lysophosphatidylcholine acyltransferase) [SID104197949] shows -3.2
Under “Wolbachia per cell robust z, rep 2”, ND-ASHI (NADH dehydrogenase (ubiquinone) ASHI subunit) [SID104205709] has -0.202
Entry of Klp67A (Kinesin-like protein at 67A) [SID104190997] under “Wolbachia per cell robust z, rep 2”: 0.0567
